Data as given in PubChem BioAssay AID504761 (Drosophila RNAi Screening Center, 2011).
The deposit covers about 22,000 reagents; below is a random part of those with a known target gene and a result. In the full data, 116 (0.52%) are marked active. 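Calls depend on retest data that are not deposited; infection was ranked per plate without normalising between plates; the unit of the infection score is not given.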 Unmarked entries are inactive. The numbers tell different reagents against one gene apart. Further read-outs or replicates are left out here. Reagent sequences are not shown. Not given: the amount of reagent, the time to read-out.

Test: 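Genome-wide fly cell screen for genes dengue virus requires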 (primary screen)
Cell system: D.Mel-2 cells from Drosophila
Reagents: long dsRNA against Drosophila genes
Challenge: infection with dengue virus type 2; dose and infection time not stated
Detection: 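Per well on two replicate plates, imaging gave the percent of cells positive for viral envelope protein, ranked by infection, and a nuclear count of cells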
Direction: infection score: higher = more virus-infected cells
Hit rule: 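Low infection ranks in the two replicates (chance level up to 0.065) followed by a retest with a 1.5-fold or larger significant decrease, p below 0.05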
Calls: active = confirmed: knock-down lowers infection; inactive = not picked or not confirmed

After knock-down of CG30495 #1, the record shows infection score, replicate 1 = 3.4.
Silencing of CG30495 #2 resulted in: infection score, replicate 1 = 11.6.
SkpB (SKP1-related B) #1 showed infection score, replicate 1 = 7.56.
Against SkpB (SKP1-related B) #2 the deposit lists infection score, replicate 1 = 0.78.
sr (stripe) #1 gave infection score, replicate 1 = 6.19.
After knock-down of sr (stripe) #2, the record shows infection score, replicate 1 = 2.76.
Depletion of CG15356 came out at: infection score, replicate 1 = 8.06.
After knock-down of Hus1-like the results were infection score, replicate 1 = 4.8.
Against Fem-1 #1 the deposit lists infection score, replicate 1 = 2.27.
For Fem-1 #2, the entry reads infection score, replicate 1 = 6.8.
Knock-down of E(spl)m5-HLH (Enhancer of split m5, helix-loop-helix) #1 came out at: infection score, replicate 1 = 22.6.
Depletion of E(spl)m5-HLH (Enhancer of split m5, helix-loop-helix) #2 came out at: infection score, replicate 1 = 13.7.
Against CG4678 #1, the entry reads infection score, replicate 1 = 3.35.
After knock-down of CG4678 #2 the results were infection score, replicate 1 = 5.31.
Depletion of CG31259 gave: infection score, replicate 1 = 10.5.
For ssp3 (short spindle 3) #1, the values are infection score, replicate 1 = 20.
ssp3 (short spindle 3) #2 showed infection score, replicate 1 = 1.71.
Against ssp3 (short spindle 3) #3 the deposit lists infection score, replicate 1 = 27.8.
Blos4 #1 gave infection score, replicate 1 = 1.36.
With knock-down of Blos4 #2 the results were infection score, replicate 1 = 2.31.
CG7289 gave infection score, replicate 1 = 3.41.
Depletion of CG18609 #1 gave: infection score, replicate 1 = 4.39.
Knock-down of CG18609 #2 gave: infection score, replicate 1 = 5.25.
CG16736 scored infection score, replicate 1 = 6.71.
Knock-down of ATPsynCF6L (ATP synthase, coupling factor 6-like) #1 came out at: infection score, replicate 1 = 2.23.
For ATPsynCF6L (ATP synthase, coupling factor 6-like) #2, the values are infection score, replicate 1 = 15.
With knock-down of Glyp (Glycogen phosphorylase), the screen gave infection score, replicate 1 = 6.19.
